Experimental data as given in paper PMC5962072, “Structural insights on the efficient catalysis of hydroperoxide reduction by Ohr: Crystallographic and molecular dynamics approaches” (PLoS ONE, 2018).

Target: Cys61 (UniProt position 61, AGYSACFIGAL)
Assay: chemical modification
Conditions: room temperature; buffers (50 mM) at different pH values; identities not stated; Reduced (dithiol) protein after DTT treatment and desalting; no ligand.

Substance	pKa
Organic hydroperoxide resistance protein (Ohr, XfOhr) R19A (Xylella fastidiosa; R19A)	8.09 (± 0.11)
Organic hydroperoxide resistance protein (Ohr, XfOhr) E51A (Xylella fastidiosa; E51A)	7.20 (± 0.11)
